Measured values from several laboratories, pooled; numbers as filed in NIAID ChemDB.

All rows: growth or infection tests; agent: Hepatitis B virus; read by: PCR; read-out: EC50

An empty or dashed field is not shown. Neighbouring rows are from separate reports. ECn is the concentration giving n% inhibition of infection, replication or growth. a–b is a range or a potency band.

O=C1NCCCn2c1c1n(c2=O)CCN(C(=O)c2ccc(Br)c(F)c2)C1 ; cells: HepG2.2.15 ; value: >5 µM
Cc1c(C(=O)C(=O)NC(C)(C)c2ccncc2)c(C)n(C)c1C(=O)Nc1ccc(F)c(C#N)c1 ; cells: HepG2.2.15 ; value: 0.001–0.0099 µM
COc1ccc(-n2c(C(=O)NCc3ccccc3)c3n(c2=O)CCN(C(=O)c2ccc(Cl)c(Cl)c2)C3)c(F)c1 ; cells: HepG2.17 ; value: 0.5–5 µM
C#C[C@@](CO)(NC(=O)C(=O)c1c(C)c(C(=O)Nc2ccc(F)c(C(F)(F)F)c2)n(C)c1C)C1CC1 ; cells: HepG2.2.15 ; value: 0.001–0.0099 µM
COc1ccc(-n2c(-c3ccccc3)c3n(c2=O)CCN(C(=O)c2ccc(Cl)c(Cl)c2)C3)cc1 ; cells: HepG2.117 ; value: >5 µM
C#C[C@@](C)(CO)NC(=O)C(=O)c1c(C)c(C(=O)Nc2ccc(F)c(C#N)c2)n(C)c1C ; cells: HepG2.2.15 ; value: 0.001–0.0099 µM
COc1ccc(-n2c(C(=O)NCC(C)C)c3n(c2=O)CCN(C(=O)c2ccc(C)c(Cl)c2)C3)cc1.Cl ; cells: HepG2.117 ; value: >5 µM
Cn1nc2ccc(N)cc2c1C(=O)Nc1ccc(F)c(Cl)c1 ; cells: HepAD38 ; value: 100–1000 µM
Cc1cc(NC(=O)c2c3c(cn2C)S(=O)(=O)NC2CCN(C(=O)C(=O)NCC(F)(F)F)CC2CO3)ccc1F ; cells: HepAD38 ; value: <0.5 µM
CNS(=O)(=O)N1CCC(NS(=O)(=O)c2cn(C)c(C(=O)Nc3ccc(F)c(F)c3)c2F)C(F)(F)C1 ; cells: HepAD38 cells ; value: <0.1 µM
Cn1nc2cc(NS(=O)(=O)c3cnn(-c4ncccn4)c3)ccc2c1C(=O)Nc1ccc(F)c(Cl)c1 ; cells: HepAD38 ; value: <100 µM
C=CC1(NC(=O)C(=O)c2c(C)c(C(=O)Nc3ccc(F)c(C#N)c3)n(C)c2C)COC1 ; cells: HepG2.2.15 ; value: 0.001–0.0099 µM
CNC(=O)C(=O)N1CC[C@@H](NS(=O)(=O)c2cn(C)c(C(=O)Nc3ccc(F)c(C(F)F)c3)c2F)C1 ; cells: HepAD38 cells ; value: <0.1 µM
C[C@H](NC(=O)c1c2n(c(=O)n1-c1ccc(OCC(F)(F)F)cc1)CCN(C(=O)c1ccc(Br)c(Cl)c1)C2)c1ccc(OC(F)F)cc1F ; cells: HepG2.117 ; value: 0.1–0.5 µM
Cc1nn(C)cc1S(=O)(=O)Nc1ccc2c(C(=O)Nc3ccc(F)c(Cl)c3)n(C)nc2c1 ; cells: HepAD38 ; value: 100–1000 µM
C[C@@H](NC(=O)c1c2n(c(=O)n1-c1ccc(OCC(F)(F)F)cc1)CCN(C(=O)c1ccc(Br)c(Cl)c1)C2)c1ccc(OCC(N)=O)cc1-n1cccn1 ; cells: HepG2.117 ; value: >0.5 µM
Cc1c(S(=O)(=O)Nc2ccc3c(C(=O)Nc4ccc(F)c(Cl)c4)n(C)nc3c2)cnn1C ; cells: HepAD38 ; value: <100 µM
Cc1cc(NC(=O)c2c3c(cn2C)S(=O)(=O)N[C@H]2CN(C(=O)C(=O)NC4(C)COC4)C[C@H]2CO3)ccc1F ; cells: HepAD38 ; value: <0.5 µM
Cc1c(C(=O)C(=O)NC2(c3ccncc3)CC(F)(F)C2)c(C)n(C)c1C(=O)Nc1ccc(F)c(C(F)(F)F)c1 ; cells: HepG2.2.15 ; value: <0.001 µM
CCn1cc(S(=O)(=O)N[C@@H]2CCN(S(=O)(=O)NC)C2)c(F)c1C(=O)Nc1ccc(F)c(F)c1 ; cells: HepAD38 cells ; value: <0.1 µM
Cc1cc(NC(=O)c2c3c(cn2C)S(=O)(=O)NC2CN(C(=O)C(=O)NC4CC4)CCC2CO3)ccc1F ; cells: HepAD38 ; value: <0.5 µM
Cn1nc2cc(NS(=O)(=O)c3ccn(-c4cccc(N)n4)n3)ccc2c1C(=O)Nc1ccc(F)c(Cl)c1 ; cells: HepAD38 ; value: 100–1000 µM
Cc1cc(NC(=O)c2c3c(cn2C)S(=O)(=O)N[C@H]2CN(C(=O)C(=O)N4CC(F)(F)C4)C[C@H]2CS3)ccc1F ; cells: HepAD38 ; value: <0.5 µM
CNC(=O)C(=O)N1CC[C@@H](NS(=O)(=O)c2cn(CC3CC3)c(C(=O)Nc3ccc(F)c(F)c3)c2F)C1 ; cells: HepAD38 cells ; value: 0.1–0.3 µM
C#CC1(NC(=O)C(=O)c2c(C)c(C(=O)Nc3ccc(Cl)c(Br)c3)n(C)c2C)CC(F)(F)C1 ; cells: HepG2.2.15 ; value: 0.001–0.0099 µM
Cc1cc(NC(=O)c2c3c(cn2C)S(=O)(=O)N[C@H]2CN(C(=O)C(=O)N[C@H](C)C(F)(F)F)C[C@H]2CO3)ccc1F ; cells: HepG2 ; mutations: F110I ; value: 0.00112 µM
O=C(Nc1ccc(F)c(Cl)c1)c1c2ccc(NS(=O)(=O)C3CC3)cc2nn1CC1CC1 ; cells: HepAD38 ; value: >1000 µM
C#CC1(NC(=O)C(=O)c2c(C)c(C(=O)Nc3ccc(F)c(C#N)c3)n(C)c2C)CCOCC1 ; cells: HepG2.2.15 ; value: 0.001–0.0099 µM
Cn1nc2nc(NS(=O)(=O)C3CC3)ncc2c1C(=O)Nc1ccc(F)c(Cl)c1 ; cells: HepAD38 ; value: >1000 µM
CNC(=O)C(=O)N1CC2COc3c(cn(C)c3C(=O)Nc3cc(F)c(F)c(F)c3)S(=O)(=O)NC2C1 ; cells: HepAD38 ; value: <0.5 µM
C[C@H](NC(=O)c1c2n(c(=O)n1-c1ccccc1)CCN(C(=O)c1ccc(Br)c(Cl)c1)C2)c1ccccc1 ; cells: HepG2.117 ; value: 0.5–5 µM
Cc1c(C(=O)C(=O)NC(C)(C)c2cnn(C)c2)c(C)n(C)c1C(=O)Nc1ccc(F)c(C(F)(F)F)c1 ; cells: HepG2.2.15 ; value: <0.001 µM
COc1cccc(-n2cc(S(=O)(=O)Nc3ccc4c(C(=O)Nc5ccc(F)c(Cl)c5)n(C)nc4c3)cn2)n1 ; cells: HepAD38 ; value: 100–1000 µM

Repeating the final 3 entries:

SMILES,cells,mutations,value
C[C@H](NC(=O)c1c2n(c(=O)n1-c1ccccc1)CCN(C(=O)c1ccc(Br)c(Cl)c1)C2)c1ccccc1,HepG2.117,-,0.5–5 µM
Cc1c(C(=O)C(=O)NC(C)(C)c2cnn(C)c2)c(C)n(C)c1C(=O)Nc1ccc(F)c(C(F)(F)F)c1,HepG2.2.15,-,<0.001 µM
COc1cccc(-n2cc(S(=O)(=O)Nc3ccc4c(C(=O)Nc5ccc(F)c(Cl)c5)n(C)nc4c3)cn2)n1,HepAD38,-,100–1000 µM